Measured values from several laboratories, pooled; numbers as filed in NIAID ChemDB.

Shared fields: host cell toxicity; cell line: HFF; measure: CC50

Two numbers with a dash give a range or band. An empty or dashed field is not shown. CCn is the concentration with n% toxicity to the cells. Rows are shuffled and stem from different studies.

| SMILES | read by | value |
|---|---|---|
| OCC(CO)OCn1c(=S)[nH]c2cc(Cl)c(Cl)cc21 | visual reading | >100 µM |
| OC[C@@H]1O[C@@H](n2c(NC3CCCCCC3)nc3cc(Cl)c(Cl)cc32)[C@H](O)[C@H]1O | visual reading | 21 µM |
| c1ccc(CSc2nc3sncc3[nH]2)cc1 | visual reading | 14 µM |
| CCSCc1c(Cl)nc2ccc(Cl)cn12 | visual reading | 100 µM |
| C=CCO[C@]1(C)C[C@@H](C)CN[C@H](C)[C@@H](O)[C@](C)(O)[C@@H](CC)OC(=O)[C@H](C)[C@@H](O[C@H]2C[C@@](C)(OC)[C@@H](O)[C@H](C)O2)[C@H](C)[C@H]1O[C@@H]1O[C@H](C)C[C@H](N(C)C)[C@H]1O | MTS | 74 µM |
| COC(=O)[C@H](C)NP(=O)(OC[C@@H]1C[C@]12C[C@@H]2n1cnc2c(N)ncnc21)Oc1ccccc1 | - | 100 µM |
| CC(=O)n1c(Cl)c([C@@H]2O[C@H](CO)[C@@H](O)[C@H]2O)c2cc(Cl)c(Cl)cc21 | - | >100 µM |
| Nc1nc2c(ncn2/C=C2/CC2(CO)CO)c(=O)[nH]1 | neutral red | >404 µM |
| COC(=O)[C@H](C)NP(=O)(OC[C@H]1C/C1=C/n1cnc2c(N)nc(N)nc21)Oc1ccccc1 | - | 121 µM |
| Cc1ccc(CNC(=O)[C@H](CCc2ccccc2)NC(=O)[C@@H](N)CCc2ccccc2)cc1 | resazurin | >50 µM |
| COc1nc(N)nc2c1ncn2C=C1CC1CO | neutral red | >404 µM |
| COC(c1cn([C@H]2C[C@H](O)[C@@H](CO)O2)c(=O)[nH]c1=O)C(Br)Br | - | >225 µM |
| Nc1nc(N)c2ncn(C=C3CC3CO)c2n1 | - | 266 µM |
| CC(C)c1ccc(O)c(O)c(=O)c1 | MTT | >100 µM |
| Cc1ccc(CNC(=O)[C@@H](NC(=O)[C@H](CCc2ccccc2)NC(=O)[C@H](CCc2ccccc2)NCc2cnccn2)C(C)C)cc1 | resazurin | >50 µM |
| COC(c1cn([C@H]2C[C@H](O)[C@@H](CO)O2)c(=O)[nH]c1=O)C(I)I | - | >186 µM |
| Nc1nc2c(Cl)c(Cl)ccc2n1COCCO | visual reading | >100 µM |
| O=c1ccn([C@H]2C[C@H](O)[C@]3(CO)C[C@H]23)c(=O)[nH]1 | - | >100 µg/mL |
| OCC(CO)OCn1c(=S)[nH]c2c(Cl)c(Cl)ccc21 | visual reading | >100 µM |
| COC(c1cn([C@H]2C[C@H](O)[C@@H](CO)O2)c(=O)[nH]c1=O)C(Cl)Cl | - | >282 µM |
| CN(C)n1cc(C(=O)O)c(=O)c2cc(N)c(N3CCN(c4ccccn4)CC3)cc21 | MTT | 365.8 µM |
| CCCCCCCCCCCCOCCCOP(=O)(O)CO[C@H](CO)Cn1ccc(N)nc1=O | - | >190 µM |
| O=c1[nH]c(=O)n([C@H]2C[C@H](O)[C@@H](CO)O2)cc1C(O)C(Cl)I | - | >231 µM |
| COc1cccc(N2CCN(c3cc4c(cc3N)c(=O)c(C(=O)O)cn4C3CC3)CC2)c1 | MTT | 15.5 µM |
| OCCSCc1c(Cl)nc2cc(Cl)c(Cl)cn12 | visual reading | >100 µM |
| COC(=O)C(Cc1c[nH]c2ccccc12)NP(=O)(O)OCC1C/C1=C/n1cnc2c(N)ncnc21 | - | >184 µM |
| Nc1ncnc2c1ncn2/C=C1/CC1(CO)CO | visual reading | 100–200 µM |
| OC[C@H]1O[C@@H](n2c(Cl)nc3cc(Cl)c(Cl)cc32)C[C@@H]1O | visual reading | >100 µM |
| O=C(O)P(=O)(O)O | - | >3000 µM |
| Cn1c(=O)ccn(/C=C2/CC2(CO)CO)c1=O | visual reading | >100 µM |
| Nc1ncnc2c1ncn2Cc1c(F)cccc1Cl | - | 50 µg/mL |
| C[C@H]1O[C@H](n2c(Br)nc3cc(Cl)c(Cl)cc32)[C@@H](O)[C@H]1O | visual reading | 50 µM |
| NC[C@H]1C[C@@H](n2cnc3c(N)ncnc32)[C@H](O)[C@@H]1O | - | 3.1 µg/mL |
| C[C@@H]1O[C@@H](n2c(Cl)nc3cc(Cl)c(Cl)cc32)[C@H](O)[C@@H]1O | visual reading | 20 µM |
| COC(c1cn([C@H]2C[C@H](O)[C@@H](CO)O2)c(=O)[nH]c1=O)C(Cl)I | - | >214 µM |
| O=C(NCc1ccc(Cl)cc1)c1cn(N2CCOCC2)c2ccc(CN3CCOCC3)cc2c1=O | - | >50 µM |
| CNc1cc2c(=O)c(C(=O)O)cn(C)c2cc1N1CCN(c2ccccn2)CC1 | MTT | >500 µM |
| OC[C@H]1O[C@@H](n2c(Cl)nc3cc(Cl)c(Cl)cc32)[C@H](O)[C@@H]1O | visual reading | 238 µM |
| CC(=O)NC(CCc1ccc(Cl)c(Cl)c1)c1cccc(O)c(=O)c1 | MTT | >100 µM |
| CN(C)c1nc2c(Cl)c(Cl)ccc2n1COC(CO)CO | visual reading | >100 µM |
| Nc1cc2c(=O)c(C(=O)O)cn(C3CC3)c2nc1N1CCN(c2ccccn2)CC1 | MTT | 126.5 µM |
| OC[C@H]1O[C@@H](n2cnc3cnnnc32)[C@H](O)[C@@H]1O | - | >100 µM |
| Nc1ncc(I)c2c1ncn2[C@@H]1C[C@H](O)[C@@H](O)[C@H]1O | - | 219 µM |
| Nc1cc2c(=O)c(C(=O)O)cn(C3CC3)c2cc1N1CCN(c2ccc3ccccc3n2)CC1 | MTT | <4 µM |
| OCCOCc1c(Cl)nc2cc(Cl)c(Cl)cn12 | visual reading | 100 µM |
| CCO[C@@H]1[C@@H](OCC)[C@H](Cc2ccccc2)O[C@@H]2CO[C@@H](c3ccc(Cl)cc3)O[C@@H]12 | - | >100 µg/mL |
| Nc1nc(F)c2ncn(/C=C3/CC3(CO)CO)c2n1 | neutral red | >377 µM |
| OC[C@H]1O[C@@H](n2c(Cl)nc3cc(Cl)c(Cl)cc32)[C@H](O)[C@@H]1O | visual reading | 238 µM |
| COc1nc2cc(Cl)c(Cl)cc2n1[C@H]1C[C@H](O)[C@@H](CO)O1 | visual reading | >100 µM |
| OCC(CO)OCn1c(Br)nc2cc(Cl)c(Cl)cc21 | visual reading | >100 µM |
| CC(=O)Nc1n[nH]c(=O)c2c1ncn2[C@@H]1O[C@H](CO)[C@@H](O)[C@H]1O | - | >100 µM |
| COc1nc(N)nc2c1ncn2/C=C1/C[C@H]1CO | - | 404 µM |
| OC[C@H]1O[C@@H](n2c(SCc3ccccc3)nc3sncc32)C[C@@H]1O | visual reading | 2.1 µM |
| CCCCCCCCCCCCCCCCCCOC[C@H](COP(=O)(O)CO[C@H](CO)Cn1ccc(N)nc1=O)OCc1ccccc1 | - | 47 µM |
| CC(C)=CCc1ccc(O)c(=O)cc1C(C)C | neutral red | 6.7 µM |
| CCCCCCCCCCCCCCO[C@H]1O[C@H](COP(=O)(O)C(=O)O)[C@@H](O)[C@H](O)[C@H]1O | - | 426 µM |
| O=[N+]([O-])c1ccc(CSc2nnnc3c2ncn3[C@@H]2O[C@H](CO)[C@@H](O)[C@H]2O)cc1 | - | >100 µM |
| CSc1nc2cc(Cl)c(Cl)cc2n1[C@H]1C[C@H](O)[C@@H](CO)O1 | visual reading | >100 µM |
| O[C@@H]1[C@H](O)[C@H](O)CO[C@H]1n1c(Br)nc2cc(Cl)c(Cl)cc21 | - | 143 µM |
| CSc1nc2snc(C)c2[nH]1 | visual reading | 26 µM |
| Cc1cn([C@@]23C[C@H](O)[C@@H](CO)[C@@H]2C3)c(=O)[nH]c1=O | - | 70.5 µg/mL |
| CSc1nc2sncc2n1[C@@H]1O[C@H](CO)[C@@H](O)[C@H]1O | visual reading | 21 µM |
| Nc1nc2ncn(/C=C3\C(F)C3(CO)CO)c2c(=O)[nH]1 | - | 260 µM |
| CCCCCCCC/C=C\CCCCCCCCO[C@H]1O[C@H](COP(=O)(O)C(=O)O)[C@@H](O)[C@H](O)[C@H]1O | - | 287 µM |
| Cc1cn([C@@H]2C[C@H](CO)[C@@H](O)C2)c(=O)[nH]c1=O | - | >10 µg/mL |
| CN1N=C(N)c2cn([C@@H]3O[C@H](CO)[C@@H](O)[C@H]3O)c3nc(-c4ccccc4)nc1c23 | visual reading | 21 µM |
| CCCCCCCCCCCCOCCCOP1(=O)CO[C@@H](Cn2ccc(N)nc2=O)CO1 | - | 63 µM |
| Cc1ccc(CNC(=O)[C@@H](NC(=O)[C@H](CCc2ccccc2)NC(=O)[C@H](CCc2ccccc2)N(C)Cc2cnccn2)C(C)C)cc1 | resazurin | 61 µM |
| CC(C)Nc1nc2cc(Cl)c(Cl)cc2n1[C@H]1O[C@H](CO)[C@H](O)[C@@H]1O | visual reading | >100 µM |
| OC[C@@H]1O[C@@H](n2c(Cl)nc3cc(Cl)c(Cl)cc32)[C@H](O)[C@H]1O | visual reading | >100 µM |
| CCc1nc2c3c(cn([C@@H]4O[C@H](CO)[C@@H](O)[C@H]4O)c3n1)C(N)=NN2C | visual reading | >100 µM |
| Cc1ccc(CNC(=O)[C@H](CCCCNC(=O)OCc2ccccc2)NC(=O)[C@H](CC2CCCCC2)NC(=O)Cc2cccnc2)cc1 | resazurin | >100 µM |
| CCCCCCCCCCCCCCCCCCOCCCOP1(=O)CO[C@@H](Cn2ccc(N)nc2=O)CO1 | - | 77 µM |
| COc1cc2[nH]c(C)c(-c3ccc(Oc4ccc(OC(F)(F)F)cc4)cc3)c(=O)c2cc1F | absorbance | 37.8 µM |
| CN(C)c1nc2c(Cl)cc(Cl)cc2n1COCCO | visual reading | >100 µM |
| O=C(NCc1ccc(Cl)cc1)c1c[nH]c2ccc(C#CCO)cc2c1=O | - | 75 µM |
| Nc1nc2c(ncn2C[C@@H]2CC[C@@H](P(=O)(O)O)O2)c(=O)[nH]1 | - | 10 µg/mL |
| Cn1c(Cl)c([C@@H]2O[C@H](CO)[C@@H](O)[C@H]2O)c2cc(Cl)c(Cl)cc21 | - | >100 µM |
| CCCCCCCCCCCCCCCCCCO[C@H]1O[C@H](COP(=O)(O)C(=O)O)[C@@H](O)[C@H](O)[C@H]1O | - | 166 µM |
| CN1N=C(N)c2cn([C@@H]3O[C@H](CO)[C@@H](O)[C@H]3O)c3nc(Cl)nc1c23 | visual reading | >100 µM |
| Nc1ncc2ncn(/C=C3/CC3(CO)CO)c2n1 | - | >300 µM |

A second listing of 12 rows from above:

SMILES | read by | value
Nc1nc2c(ncn2C[C@@H]2CC[C@@H](P(=O)(O)O)O2)c(=O)[nH]1 | - | 10 µg/mL
OCC(CO)OCn1c(Br)nc2cc(Cl)c(Cl)cc21 | visual reading | >100 µM
CN1N=C(N)c2cn([C@@H]3O[C@H](CO)[C@@H](O)[C@H]3O)c3nc(-c4ccccc4)nc1c23 | visual reading | 21 µM
O=c1ccn([C@H]2C[C@H](O)[C@]3(CO)C[C@H]23)c(=O)[nH]1 | - | >100 µg/mL
CNc1cc2c(=O)c(C(=O)O)cn(C)c2cc1N1CCN(c2ccccn2)CC1 | MTT | >500 µM
Nc1nc2c(ncn2/C=C2/CC2(CO)CO)c(=O)[nH]1 | neutral red | >404 µM
OC[C@@H]1O[C@@H](n2c(NC3CCCCCC3)nc3cc(Cl)c(Cl)cc32)[C@H](O)[C@H]1O | visual reading | 21 µM
COc1nc(N)nc2c1ncn2/C=C1/C[C@H]1CO | - | 404 µM
CCCCCCCC/C=C\CCCCCCCCO[C@H]1O[C@H](COP(=O)(O)C(=O)O)[C@@H](O)[C@H](O)[C@H]1O | - | 287 µM
Cc1ccc(CNC(=O)[C@H](CCc2ccccc2)NC(=O)[C@@H](N)CCc2ccccc2)cc1 | resazurin | >50 µM
CCCCCCCCCCCCOCCCOP1(=O)CO[C@@H](Cn2ccc(N)nc2=O)CO1 | - | 63 µM
CCSCc1c(Cl)nc2ccc(Cl)cn12 | visual reading | 100 µM